Data reported in paper PMC12023841, “Unlocking the Gates: A Novel Diagnostic Molecule for Quantifying Efflux Levels in Gram‐Positive Bacteria” (Advanced Healthcare Materials, 2025).
Values joined by “and” are separate entries in the source; they are usually repeats but may differ in a detail not shown here. Identical values can stand only once.

System: HaCaT keratinocytes cells
Assay: In-vitro cytotoxicity test, Neutral Red uptake
Type: cell-based, Human
Details: 24 hours
Procedure: Method: The in-vitro cytotoxicity test assessed cell viability based on Neutral Red uptake, a dye that accumulates in lysosomes and decreases in response to membrane damage. HaCaT keratinocytes were cultured in DMEM with 10% calf serum and incubated at 37°C, 5% CO₂. Cells were seeded in 96-well plates, treated with eight concentrations of the 5a4, and incubated for 24 hours. After washing, cells were exposed to Neutral Red medium for 3 hours, followed by washing and destaining. Optical density (OD540) was measured using a fluorescence reader, and IC50 values were calculated using Phototox Version 2.0, comparing treated wells to untreated controls.^[10]

`CCCCNc1ccc2nc3cc(NCCOC)c(N)cc3[n+](CCC)c2c1` [5a4] was tested, and the “Optical Densities (OD540), replicates n=3” value (shortened to “Optical Densities (OD540)”) (0.00025 µg/ml) was 0.67 and 0.666 and 0.648, the “Optical Densities (OD540)” value (0.0005 µg/ml) was 0.671 and 0.658 and 0.633 and the “Optical Densities (OD540)” value (0.001 µg/ml) was 0.598 and 0.584 and 0.579. For the same molecule, the “Optical Densities (OD540)” value (0.025 µg/ml) was 0.552 and 0.548 and 0.597, the “Optical Densities (OD540)” value (0.05 µg/ml) was 0.468 and 0.492 and 0.458 and the “Optical Densities (OD540)” value (0.1 µg/ml) was 0.413 and 0.425 and 0.426. For the same molecule, the “Optical Densities (OD540)” value (0.25 µg/ml) was 0.323 and 0.319 and 0.325, the “Optical Densities (OD540)” value (0.5 µg/ml) was 0.284 and 0.274 and 0.289 and the “Optical Densities (OD540)” value (1 µg/ml) was 0.123 and 0.101 and 0.134. The “Optical Densities (OD540)” value (2.5 µg/ml) was 0.095 and 0.1 and 0.098.
